Results: ChEMBL document CHEMBL3120129, “Enantiomeric atropisomers inhibit HCV polymerase and/or HIV matrix: characterizing hindered bond rotations and target selectivity” (J Med Chem, 2014)

Columns and labels:
[1] = Inhibition of HCV genotype 1b hexa-histidine-tagged NS5B polymerase expressed in baculovirus infected cell system
[2] = test system: Hepatitis C virus; test: Antiviral activity against HCV genotype 1b by HCV replicon assay; format: functional, organism-based, Hepacivirus hominis

CN1CCC(N(c2ccc(Oc3ccccc3C(F)(F)F)cc2C(=O)O)C(=O)[C@H]2CC[C@H](C)CC2)CC1
pIC50 [1]: 6.89
pEC50 [2]: 7.15

pEC50, pIC50: −log10 of the molar value. Some compounds may have been tested in ways that are not shown here.
